# Measurements reported in publication PMC8047077.
# The chains behind the UniProt entries cited, without tags or fusion partners. Where a name states a change or a piece, a line headed by the entry shows the natural chain unless it says otherwise.
# UniProt P09912: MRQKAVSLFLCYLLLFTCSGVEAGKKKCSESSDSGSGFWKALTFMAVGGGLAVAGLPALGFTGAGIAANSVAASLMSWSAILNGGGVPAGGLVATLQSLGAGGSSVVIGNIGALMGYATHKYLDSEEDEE
# Target: GST-IFI6 (UniProt P09912)
# Test: EMSA
# Conditions: EMSA: 400 mM Tris-HCl pH 8.0; protein 30 min on ice, then probe 30 min at room temperature; 1% agarose gel; recombinant protein
sequence,measurement,value
ACTGTTTGTTTAAAGACTGGGAGGAGTTGGGGGAGGAGATTAGGTTAAAGGTCTT (double strand) [EnhII/Cp 1715-1770 probe],binding result,binds

# Construct, isoform or probe ends are uncertain for at least one entry.
